Article PMC4539048 (Science translational medicine, 2015)

How the values were obtained:
[1] = tested on: P. falciparum K1; details: K1 strain
[2] = tested on: P. falciparum Dd2; format: cell-based

Compound: Cc1cc(Nc2ccc(S(F)(F)(F)(F)F)cc2)n2nc(C(C)(F)F)nc2n1 [DSM265, 2-(1,1-difluoroethyl)-5-methyl-[N-[4-(pentafluorosulfanyl)phenyl]1,2,4]triazolo[1,5-a]pyrimidin-7-amine]
- minimum inoculum for resistance (MIR) [1]: 2×10^8 parasites
- drug concentration required to suppress emergence of resistant parasites ([2]; Dd2, inoculum 2×10^7 parasites): 8 xEC50
- EC50 increase of resistant Dd2 parasites over wild-type ([2]; parasites selected with the same drug): 3–26 fold
